This passage reports activity, negative = inhibition results from PubChem BioAssay AID624173 (National Center for Advancing Translational Sciences (NCATS), 2012).

This is a selection; strong and weak results do not stand in their true shares. Calls of active or inactive are those of the source. The call rests on the fitted dose curve; in most records, active means well fitted inhibition curve with a large enough effect; inconclusive means small, poorly fitted or top-dose-only effect; inactive means flat fitted curve, though single readings scatter.
On the % scale 0 is the no-effect control and ±100 the full control effect.

The target in this experiment is pyruvate kinase (Trypanosoma brucei) (UniProt Q57TT1). The experiment can be described thus: qHTS of Trypanosoma Brucei Inhibitors. Further: nearly all actives have a fitted effect of over 50% in size. The note with it: TbPYK enzyme, Kinase-Glo Plus ATP luminescence, 45 min; at 76.8 µM (top of the series) unless noted. (In qHTS, concentration-response curves come from the screen itself.)
Take `CCOP(=O)(CC)Oc1ccc([N+](=O)[O-])cc1` (stereo not drawn): the activity, negative = inhibition was inactive: 0%.

`Cc1cccc([N+](=O)[O-])c1[N+](=O)[O-]`: the activity, negative = inhibition was inactive: -10.7% [at 157 µM]. Then `CCOC(=O)c1ccc(NP(C)(=O)Oc2ccc(F)cc2)cc1` (stereo not drawn), with inactive: -10.1%.

Regarding `Cc1c([N+](=O)[O-])cc([N+](=O)[O-])c(Br)c1[N+](=O)[O-]`, the activity, negative = inhibition is inactive: -0.214%. Then `CCN(CC)CCCOC(=O)C(O)(c1ccccc1)C1CCCCC1` (stereo not drawn), with inactive: -7.26%; and `CP(=O)(Nc1ccccc1)Oc1ccc(F)cc1` (stereo not drawn), with inactive: -0.491%; and `CCCCCOc1ccc(NP(C)(=O)Oc2ccc(Cl)cc2Cl)cc1` (stereo not drawn), with inactive: -3.96%.

`Cc1cc(C)cc(OP(C)(=O)Nc2cccc(C(F)(F)F)c2)c1` (stereo not drawn): the activity, negative = inhibition is inactive: 2.79%. Then `COc1ccccc1OP(C)(=O)Nc1ccc(C)c(C)c1` (stereo not drawn), with inactive: 0.35%; and `COc1ccc(OP(C)(=O)Nc2ccccc2Br)cc1` (stereo not drawn), with inactive: 0.639%. Then `CP(=O)(Nc1ccc(Cl)cc1Cl)Oc1ccccc1` (stereo not drawn), with inactive: -1.78%; and `CCCCCCCCCCCCCCCC1C[N+](C)(C)CCOP(C)(=O)O1` (stereo not drawn), with inactive: -5.38%. Then `CP(=O)(OCCOc1ccccc1)OCCOc1ccccc1`, with inactive: 5.49%; and `COc1ccccc1OP(C)(=O)Nc1ccc(Br)cc1` (stereo not drawn), with inactive: 4.53%. As to `COc1ccc(OP(C)(=O)Nc2ccccn2)cc1` (stereo not drawn), the activity, negative = inhibition is inactive: -2.44%. Then `CN(C)CCOC(=O)C(O)(c1ccccc1)C1CCCC1` (stereo not drawn), with inactive: 1.99%; and `Cc1c(NP(C)(=O)Oc2ccc(C(C)C)cc2)c(=O)n(-c2ccccc2)n1C` (stereo not drawn), with inactive: 9.49%; and `O=[N+]([O-])c1cc([N+](=O)[O-])c(Nc2ccccn2)c([N+](=O)[O-])c1`, with inactive: 1.7%. Then `COc1ccccc1OP(C)(=O)Nc1ccc(C)cc1C` (stereo not drawn), with inactive: -3.53%; and `CP(=O)(Nc1ccccn1)Oc1ccccc1` (stereo not drawn), with inactive: -2.07%.

On to `CCc1ccc(OP(C)(=O)O)cc1`, for which the activity, negative = inhibition is inactive: 2.18%.

Regarding `COc1ccc(OP(C)(=O)Nc2ccc(Br)cc2)cc1` (stereo not drawn), the activity, negative = inhibition was inactive: 1.8%. As for `CCN(CC)CC(O)COC(=O)C(O)(c1ccccc1)C1CCCCC1` (stereo not drawn), the activity, negative = inhibition is inactive: 3.61%. For `N#[O+].[C-]#N.[C-]#N.[C-]#N.[C-]#N.[C-]#N.[Fe+2].[Na+].[Na+]`, the activity, negative = inhibition is inactive: -1.64%. Then `OCCSCCO`, with inactive: -7.9%. Then `O=C(OCCCN1CCCC1)C(O)(c1ccccc1)C1CCCCC1` (stereo not drawn), with inactive: 1.82%; and `COc1ccccc1OP(C)(=O)Nc1c(C)n(C)n(-c2ccccc2)c1=O` (stereo not drawn), with inactive: -0.779%.

Regarding `CCc1ccc(OP(C)(=O)Nc2cccnc2)cc1` (stereo not drawn), the activity, negative = inhibition was inactive: -0.798%. Then `CP(=O)(Oc1ccccc1)N1CCOC1=O` (stereo not drawn), with inactive: -2.71%; and `COc1ccccc1OP(C)(=O)Nc1ccccc1Br` (stereo not drawn), with inactive: 5.57%.

`CC(C)(C)c1ccc(OP(C)(=O)O)cc1`: the activity, negative = inhibition is inactive: 13.3%.

For the compound `CP(=O)(Nc1ccc(Cl)cc1)Oc1ccc(F)cc1` (stereo not drawn), the activity, negative = inhibition is inactive: -10.7%.

As for `CN(C)C(=O)c1c([N+](=O)[O-])cc([N+](=O)[O-])cc1[N+](=O)[O-]`, the activity, negative = inhibition is inactive: -20.1%. Then `Nc1ccc2c(ccc3cccnc32)n1.O=[N+]([O-])c1cc([N+](=O)[O-])c(O)c([N+](=O)[O-])c1`, with inactive: 1.33%; and `CCOC(=O)c1ccc(NP(C)(=O)Oc2ccc(Cl)cc2)cc1` (stereo not drawn), with inactive: -7.02%; and `CP(=O)(OC12CC3CC(CC(C3)C1)C2)OC12CC3CC(CC(C3)C1)C2`, with inactive: -1.01%. For the compound `CC(C)OP(=O)(F)OC(C)C`, the activity, negative = inhibition is inactive: 2.4%. Then `C/C1=C2N=C(/C=C3N=C(/C(C)=C4\[N-][C@@](C)([C@H]5N=C1[C@@](C)(CCC(=O)NC[C@H](C)OP(=O)([O-])O[C@@H]1[C@H](O)[C@H](n6cnc7cc(C)c(C)cc76)O[C@@H]1CO)[C@@H]5CC(N)=O)[C@](C)(CC(N)=O)[C@H]4CCC(N)=O)[C@@](C)(CC(N)=O)[C@@H]\3CCC(N)=O)C(C)(C)[C@@H]/2CCC(N)=O.[C-]#N.[Co+3]`, with inactive: -7.9% [at 33.2 µM].
